Results of unrelated studies side by side (data: NIAID ChemDB).

Common to all: whole-cell or culture tests; organism: Mycobacterium tuberculosis

MIC50, MIC90 and the like: level of inhibition, or share of isolates inhibited. MIC bound comes from a single tested concentration. Conditions beyond the fields shown may differ between rows. Inhibition is in % at the dose shown (toxicity tests: loss of growth or viability). ECn is the concentration giving n% inhibition of infection, replication or growth. An empty or dashed field is not shown.

SMILES,read-out,setting,changes,cell line,strain,read by,dose,result
O=[N+]([O-])[O][Ga]([O][N+](=O)[O-])[O][N+](=O)[O-],inhibition,inside macrophages,,,H37Ra,,375 µM,90%
CCC(/C=C/C(C)[C@H]1CCC2C3CC=C4C[C@@H](O[C@@H]5O[C@H](COC(C)=O)[C@@H](OC(C)=O)[C@H](OC(C)=O)[C@H]5OC(C)=O)CC[C@]4(C)C3CC[C@@]21C)C(C)(C)C,inhibition,,,,ATCC 27294,resazurin,6.25 µg/mL,30%
CC(C)CC(NC(=O)OCc1ccccc1)C(=O)N/N=C/c1occc1[N+](=O)[O-],MIC,,,,H37Rv,resazurin,,25 µg/mL
COC(=O)[C@H](Cc1c[nH]c2ccccc12)NC(=O)N[C@@H](CC1CCCCC1)C(=O)N[C@H](C(=O)NC[C@H]1C[C@@H](O)[C@H](n2ccc(=O)[nH]c2=O)O1)[C@H](C)N(C)C(=O)CN,MIC99,,,,H37Rv,resazurin / fluorescence,,0.2 µM
CCC(C)c1c(NS(=O)(=O)c2ccc(C)cc2)o[nH]c1=O,MIC bound,,,,H37Rv,BACTEC,,>12.5 µg/mL
O=C(NC(Cc1ccccc1)C(=O)N/N=C/c1occc1[N+](=O)[O-])OCc1ccccc1,MIC,,,,H37Rv,resazurin,,12.5 µg/mL
CN(C)C(=S)N/N=C/c1ccc([N+](=O)[O-])o1,MIC,,,,,,,40 µg/mL
C[C@@H]([C@H](NC(=O)[C@H](CC1CCCCC1)NC(=O)N[C@@H](Cc1c[nH]c2ccccc12)C(=O)OCc1ccccc1)C(=O)NC[C@H]1C[C@@H](O)[C@H](n2ccc(=O)[nH]c2=O)O1)N(C)C(=O)CN,MIC99,,,,H37Rv,resazurin / fluorescence,,0.166 µM
COc1ccc2c(c1)[n+]([O-])c(C(N)=O)c(N)[n+]2[O-],MIC,,,,INH-r,,,6.3 µg/mL
COc1ccc(/C=C/C(=O)Oc2ccc(CCO)c(O)c2)cc1,inhibition,,,,ATCC 27294,resazurin,6.25 µg/mL,49%
Nc1ncnc2c([C@@H]3O[C@H](CO)[C@@H](O)[C@H]3O)nsc12,MIC bound,,,,H37Rv,resazurin,,>6.25 µg/mL
CCC(/C=C/C(C)[C@H]1CCC2C3CC=C4C[C@@H](O[C@@H]5O[C@H](CO)[C@@H](O)[C@H](O)[C@H]5O)CC[C@]4(C)C3CC[C@@]21C)C(C)(C)C,inhibition,,,,ATCC 27294,resazurin,6.25 µg/mL,8%
CCN(CC)CCN1c2ccc(OC)cc2Sc2ccc3ccccc3c21,MIC,,,VERO,H37Rv,,,6.25 µg/mL
COc1cc2oc(=O)cc(C[C@H](NC(=O)N[C@@H](Cc3c[nH]c4ccccc34)C(=O)OCc3ccccc3)C(=O)N[C@H](C(=O)NC[C@H]3C[C@@H](O)[C@H](n4ccc(=O)[nH]c4=O)O3)[C@H](C)N(C)C(=O)CN)c2cc1OC,MIC99,,,,H37Rv,resazurin / fluorescence,,0.312 µM
CC1CCCCN1.CC1CCCCN1C(=S)S,MIC bound,,,,H37Rv,BACTEC,,≤12.5 µg/mL
NC1CCN(c2c(F)cc3c(=O)c(C(=O)O)cn(C4CC4)c3c2Cl)C1,MIC,,,,ATCC 35822,,,0.25 µg/mL
NCC[C@H](O)C(=O)NC1C[C@H](N)[C@@H](OC2O[C@H](CN)[C@@H](O)C(O)[C@H]2O)[C@H](O)C1O[C@H]1O[C@H](CO)[C@@H](O)[C@H](N)[C@H]1O,MIC,,,,H37Rv,resazurin,,1 µg/mL
CN(C)CCNC(=O)c1cccc2c1Oc1c(cccc1[N+](=O)[O-])O2,inhibition,,,,H37Rv,,6.25 µg/mL,0%
COc1ccc2nccc(Nc3ccc(S(=O)(=O)c4ccc(NC(C)=O)cc4)cc3)c2c1,MIC,,,,Strain 1 (MDR),,,0.4 µg/mL
COc1cc(CNC(=O)CCCC/C=C/C(C)C)ccc1O,EC50,,,,H37Ra,resazurin,,110 µM
O=C(C(O)CO)N1CC=C(c2c(F)cc(N3CC(COc4ccon4)OC3=O)cc2F)CC1,MIC,,,,ss18b,resazurin,,0.4 µg/mL
CCCCCCCCCCCCCCCCSc1ccnc(C(N)=S)c1,MIC,,,,H37Rv,,,2000 µM
Cc1nc(Cl)c(C(N)=O)nc1C,inhibition,,,,H37Rv,BACTEC,12.5 µg/mL,-5%
Oc1cc(CCCc2ccccc2)ccc1Oc1ccc(Cl)cc1Cl,MIC,,,,Clinical isolate 5071,,,13 µM
Cc1cc(C)c2nc3c(c(C(O)C4CCCCN4)c2c1)CC/C3=C\c1ccc(Cl)cc1,MIC bound,,,,H37Rv,resazurin,,>6.25 µg/mL
Cn1c2ccccc2c2cc(C=NNc3nc(-c4cccc(F)c4)cs3)ccc21,EC90,,,,H37Rv,fluorescence,,>200 µM
CN(C)[C@@H]1C(=O)C(C(=O)NCN2CCCC2)=C(O)[C@@]2(O)C(=O)C3=C(O)c4c(O)cccc4[C@@](C)(O)[C@H]3C[C@@H]12,MIC bound,,,,H37Rv,BACTEC,,>12.5 µg/mL
O=C(N=Nc1c(O)[nH]c2cc(Cl)ccc12)Nc1ccc(Br)cc1,inhibition,,,,H37Rv,,6.25 µg/mL,<20%
CC(=O)Nc1ccc(/C=N/NC(N)=S)cc1,MIC,,,,,,,10 µg/mL
CC(=O)NC[C@H]1CN(c2ccc(N3CCOCC3)c(F)c2)C(=O)O1,MIC,,,,H37Rv,resazurin,,0.5 µg/mL
CC(NC(=O)OC(C)(C)C)C(=O)N/N=C/c1cccs1,MIC,,,,H37Rv,resazurin,,100 µg/mL
Cn1cc(NC(=O)c2cc(NC(=O)CCCCCCCCCCC(=O)Nc3cc(C(=O)Nc4cc(C(=O)NCCC(N)=[NH2+])n(C)c4)n(C)c3)cn2C)cc1C(=O)NCCC(N)=[NH2+],inhibition,,,,H37Rv,BACTEC,12.5 µg/mL,99%
CCCc1cc(C(N)=S)ccn1,MIC,,,,H37Rv,resazurin,,2 µg/mL
Cn1c2ccccc2c2cc(C=NNc3nc(-c4ccc(O)cc4)cs3)ccc21,EC50,,,,H37Rv,fluorescence,,41 µM
Cc1cc2nc(CC(=O)c3ccncc3)c(=O)[nH]c2cc1C,inhibition,,,,H37Rv,BACTEC,12.5 µg/mL,2%
C[C@H]1COc2c(N3CCN(C)CC3)c(F)cc3c(=O)c(C(=O)O)cn1c23,MIC,,,,ATCC 35826,,,0.25 µg/mL
CCCCCCCCCCSc1ccnc(C(N)=S)c1,MIC,,,,H37Rv,,,30 µM
CCCCCCCCCCCCOC(=O)[C@H](Cc1c[nH]c2ccccc12)NC(=O)N[C@@H](Cc1ccc2ccccc2c1)C(=O)N[C@H](C(=O)NC[C@H]1C[C@@H](O)[C@H](n2ccc(=O)[nH]c2=O)O1)[C@H](C)N(C)C(=O)CN,MIC99,,,,H37Rv,resazurin / fluorescence,,0.3 µM
CC[C@@H](CO)NCCN[C@@H](CC)CO,MIC,,,,H37Rv,agar / visual reading,,30.6 µM
COc1cc(CNc2ccc(B3OC(C)(C)C(C)(C)O3)cc2)ccc1O,inhibition,,,,H37Ra,resazurin,200 µM,<50%
CC(C)(C)Sc1ccnc(C(N)=S)c1,MIC,,,,H37Rv,,,30 µM
Nc1ccc(S(=O)(=O)Nc2ccnn2-c2ccccc2)cc1,MIC,,,,Strain 2 (MDR),,,>4 µg/mL
O=[N+]([O-])c1ccc(-c2nc(Cl)c3c(n2)CCCC3)o1,MIC,,,,H37Rv,BACTEC,,≥12.5 µg/mL
C=C[C@]1(C)C=C2C(=O)c3c(NC=O)cccc3C(C)(C)[C@H]2C[C@H]1O,MIC,,,,,,,>100 µM
Cn1c2ccccc2c2cc(C=NNc3nc(-c4cc5ccccc5oc4=O)cs3)ccc21,MIC,,,,H37Rv,fluorescence,,>200 µM
Nc1cccc(O)c1,MIC,,,,Strain 2 (MDR),,,0.25 µg/mL
CC(C)CCc1ccc(Oc2ccc(Cl)cc2Cl)c(O)c1,MIC,,,,H37Rv,,,60 µM
CC(C)c1cccc(C(C)C)c1NC(=O)/C(Cc1nc2ccc(Cl)cc2[nH]c1=O)=N/NC(=O)C[N+](C)(C)C.[Cl-],inhibition,,,,H37Rv,BACTEC,12.5 µg/mL,23%
COc1cccc2c(NC(=S)Nc3ccc(Cl)cc3)ccnc12,MIC,,,,Strain 2 (MDR),,,>2 µg/mL
CC1CN(c2cc3c(cc2F)c(=O)c(C(=O)O)cn3-c2ccc(F)cc2F)CCN1,MIC,,,,H37Rv,,,1 µg/mL
CC(=O)Nc1ccc(S(=O)(=O)c2ccc(N)cc2)cc1,MIC,,,,Strain 1 (MDR),,,1 µg/mL
C[C@H]1COc2c(N3CCN(C)CC3)c(F)cc3c(=O)c(C(=O)O)cn1c23,MIC,,,,H37Rv,resazurin,,0.5 µg/mL
CCC(C)Sc1ccnc(C(N)=S)c1,MIC,,,,H37Rv,,,60 µM
OC1(c2ccc(-c3ccccc3)cc2)c2ccccc2-c2ccccc2C1(O)c1ccc(-c2ccccc2)cc1,inhibition,,,,H37Rv,resazurin,6.25 µg/mL,-8%
CC(C)(C)OC(=O)NC(Cc1ccccc1)C(=O)N/N=C/c1sccc1[N+](=O)[O-],MIC,,,,H37Rv,resazurin,,50 µg/mL
CCCCCCOC(=O)[C@H](Cc1c[nH]c2ccccc12)NC(=O)N[C@@H](Cc1ccc2ccccc2c1)C(=O)N[C@H](C(=O)NC[C@H]1C[C@@H](O)[C@H](n2ccc(=O)[nH]c2=O)O1)[C@H](C)N(C)C(=O)CN,MIC50,,,,H37Rv,resazurin / fluorescence,,0.03 µM
Cc1ccc2nccc(NC(=S)Nc3ccc(Cl)cc3)c2c1,MIC,,,,Strain 1 (MDR),,,0.5 µg/mL
COc1cc(C2C(C#N)=C(C)Nc3nc(N)nc(N)c32)cc(OC)c1OC,MIC bound,,,,H37Rv,resazurin,,>6.25 µg/mL
CCCCCCCCCNCc1ccc(O)c(OC)c1,MIC90,,,,H37Ra,resazurin,,150 µM
FC(F)(F)c1cc(Br)c2ccc3ncccc3c2n1,inhibition,,,,H37Rv,BACTEC,12.5 µg/mL,34%
CCCCCCCCSc1ccnc(C(N)=S)c1,MIC,,,,H37Rv,,,15 µM
C=CCc1cc(OC)c(OC(C)=O)c(OC(C)=O)c1,MIC,,,,H37Rv,agar / visual reading,,208.3 µM
Cn1c2ccccc2c2cc(C=NNc3nc(-c4cccs4)cs3)ccc21,EC50,,,,H37Rv,fluorescence,,>50 µM
C[N+](C)(C)CC(=O)N/N=C(\Cc1cc(=O)oc2cc(O)ccc12)C(=O)Nc1ccc(Cl)cc1.[Cl-],inhibition,,,,H37Rv,BACTEC,12.5 µg/mL,4%
CCSc1ccnc(C(N)=S)c1,MIC,,,,H37Rv,,,60 µM
O=C1Nc2cnc(Cl)nc2Nc2ccccc21,MIC bound,,,,H37Rv,BACTEC,,>12.5 µg/mL
Cn1c2ccccc2c2cc(C=NNc3nc(-c4ccc(Br)cc4)cs3)ccc21,MIC,,,,H37Rv,fluorescence,,>200 µM
C[C@@H]([C@H](NC(=O)[C@H](Cc1ccc2ccccc2c1)NC(=O)N[C@@H](Cc1c[nH]c2ccccc12)C(=O)NCc1ccccc1)C(=O)NC[C@H]1C[C@@H](O)[C@H](n2ccc(=O)[nH]c2=O)O1)N(C)C(=O)CN,MIC99,,,,H37Rv,resazurin / fluorescence,,0.328 µM
CCN(CC)C(=S)N/N=C/c1ccc([N+](=O)[O-])o1,MIC,,,,,,,100 µg/mL
CCCCSc1ccnc(C(N)=S)c1,MIC,,,,H37Rv,,,30 µM
NNC(=O)C(N)Cc1ccccc1,MIC,,,,H37Rv,resazurin,,100 µg/mL
CC1(CO)CCCC1NCCNC1CCCC1(C)CO,inhibition,,,,H37Rv,BACTEC,12.5 µg/mL,0%
Cn1c2ccccc2c2cc(C=NNc3nc(-c4ccccc4O)cs3)ccc21,EC50,,,,H37Rv,fluorescence,,39 µM
C[C@H]1C[C@H](N)CN1c1cc2c(cc1F)c(=O)c(C(=O)O)cn2-c1ccc(F)cc1F,MIC50,,,,Drug-resistant,,,2 µg/mL
CC(C)=CCOc1c2ccoc2cc2oc(=O)ccc12,MIC100,,Isoniazid rifampicin ethambutol-resistant,,H37Rv clinical isolate CRY6,resazurin,,100 µg/mL
CC(C)CC(NC(=O)OCc1ccccc1)C(=O)N/N=C/c1sccc1[N+](=O)[O-],MIC,,,,H37Rv,resazurin,,25 µg/mL
O=C(NNc1ccccc1)C1C2CC3OC(=O)C1C3C2,inhibition,,,,H37Rv,BACTEC,12.5 µg/mL,-7%
CN1CCN(C(=O)N/N=C/c2ccc([N+](=O)[O-])o2)CC1,MIC,,,,,,,10 µg/mL

A second listing of 11 rows from above:

| SMILES | read-out | setting | changes | cell line | strain | read by | dose | result |
|---|---|---|---|---|---|---|---|---|
| COc1ccc(/C=C/C(=O)Oc2ccc(CCO)c(O)c2)cc1 | inhibition |  |  |  | ATCC 27294 | resazurin | 6.25 µg/mL | 49% |
| Cn1c2ccccc2c2cc(C=NNc3nc(-c4cc5ccccc5oc4=O)cs3)ccc21 | MIC |  |  |  | H37Rv | fluorescence |  | >200 µM |
| CCC(C)c1c(NS(=O)(=O)c2ccc(C)cc2)o[nH]c1=O | MIC bound |  |  |  | H37Rv | BACTEC |  | >12.5 µg/mL |
| Cc1cc2nc(CC(=O)c3ccncc3)c(=O)[nH]c2cc1C | inhibition |  |  |  | H37Rv | BACTEC | 12.5 µg/mL | 2% |
| Cn1c2ccccc2c2cc(C=NNc3nc(-c4ccc(Br)cc4)cs3)ccc21 | MIC |  |  |  | H37Rv | fluorescence |  | >200 µM |
| C[C@H]1COc2c(N3CCN(C)CC3)c(F)cc3c(=O)c(C(=O)O)cn1c23 | MIC |  |  |  | ATCC 35826 |  |  | 0.25 µg/mL |
| CC(=O)NC[C@H]1CN(c2ccc(N3CCOCC3)c(F)c2)C(=O)O1 | MIC |  |  |  | H37Rv | resazurin |  | 0.5 µg/mL |
| CCN(CC)CCN1c2ccc(OC)cc2Sc2ccc3ccccc3c21 | MIC |  |  | VERO | H37Rv |  |  | 6.25 µg/mL |
| CCCCCCCCCCCCCCCCSc1ccnc(C(N)=S)c1 | MIC |  |  |  | H37Rv |  |  | 2000 µM |
| Cn1c2ccccc2c2cc(C=NNc3nc(-c4cccc(F)c4)cs3)ccc21 | EC90 |  |  |  | H37Rv | fluorescence |  | >200 µM |
| C=CCc1cc(OC)c(OC(C)=O)c(OC(C)=O)c1 | MIC |  |  |  | H37Rv | agar / visual reading |  | 208.3 µM |